Assay results taken from publication PMC8062000, “High-throughput screening of the ReFRAME, Pandemic Box, and COVID Box drug repurposing libraries against SARS-CoV-2 nsp15 endoribonuclease to identify small-molecule inhibitors of viral activity” (PLoS ONE, 2021).
Where two headings read alike, the source gives them in different places.

How the values were obtained:
[1] = biological target: SARS-CoV-2 nsp15 endoribonuclease (endoU) (Severe acute respiratory syndrome coronavirus 2, UniProt P0DTD1); assay: nsp15 endoribonuclease FRET assay (1°, 2°, 3°); assay type: biochemical
SARS-CoV-2 = assay: In vitro CPE assay in Vero 76 cells; assay type: cell-based
[2] = read-out: 2° FRET Assay IC50, secondary dose response, 8-point 3-fold, top concentration 10 μM
[3] = read-out: 3° FRET Assay IC50, tertiary dose response, expanded concentration range

Row | SMILES | IC50 [1, 2] [µM] | IC50 [1, 3] [µM] | 3° FRET Assay IC50 ([1]; tertiary dose response, expanded concentration range) | selectivity index (SI) (SARS-CoV-2; Vero 76, microscopic observation) | selectivity index (SI) (SARS-CoV-2; Vero 76, neutral red staining)
1 | O=C1NC(=O)/C(=C\c2ccccc2)C2=C1CCCC2 [Tesimide] | 1.09 | 0.75 | sub-micromolar | – | –
2 | O=C1C(NC2CCCCCCC2)=CC(=O)c2ncccc21 [Azaquinone] | 3.12 | – | – | – | –
3 | O=C(Nc1cccc(C2=NCCN2)c1)c1ccc(-c2ccc(C(=O)Nc3cccc(C4=NCCN4)c3)cc2)cc1 [MMV1580853] | > 10 | 11.5 | – | – | –
4 | O=C(Nc1ccc(O)c(O)c1)c1cccc(O)c1O [Exebryl-1] | 1.06 | – | – | 5.2 | 3.6
5 | Cc1nc2c(s1)C(=O)C=C(NCCN(C)C)C2=O [BN-82685] | 6.32 | – | – | – | –
